{"source": "patent US6362166B1", "about": "“Antipicornaviral compounds and methods for their use and preparation” (Agouron Pharmaceuticals, Inc., priority 1996, dated 2002)", "data": [{"tested_on": "HRV-14", "experiment": "Antirhinoviral HI-HeLa Cell Culture Assay (Cell Protection Assay, XTT dye reduction)", "assay_type": "cell-based, human rhinovirus (HRV) serotype-14", "conditions": "therapeutic index = CC50 divided by EC50; HRV-14, HI-HeLa", "protocol": "In the Cell Protection Assay, the ability of compounds to protect cells against HRV infection was measured by the XTT dye reduction method. This method is described in Weislow, O. S., R. Kiser, D. L. Fine, J. Bader, R. H. Shoemaker, and M. R. Boyd, J. Natl. Cancer Inst. 1989, 81, 577-586, which is incorporated herein by reference.\nHI-HeLa cells were infected with HRV-14 at a multiplicity of infection (m.o.i.) of 0.13 (virus particles/cell) or mock-infected with medium only. Infected or mock-infected cells were resuspended at 8×10^5 cells per mL and incubated with appropriate concentration of compounds of formulas I and II. Two days later, XTT/PMS was added to test plates and the amount of formazan produced was quantified spectrophotometrically at 450/650 nm. […] The therapeutic index (TI) was calculated by dividing the CC50 by the EC50.\nAll strains of human rhinovirus (HRV) for use in this assay were purchased from American Type Culture Collection (ATCC), except for HRV serotype-14, which was produced from the infectious cDNA clone, constructed and supplied to us by Dr. Roland Rueckert at the Institue for Molecular Virology, University of Wisconsin, Madison, Wisc. HRV stocks were propagated, and antiviral assays were perforemd in HI-HeLa cells (ATCC). Cells were grwon in Minimal Essential Medium, available from Life Technologies, with 10% fetal bovine serum.\nThe compounds were tested against control compounds WIN 51711, WIN 52084, and WIN 54954, all obtained from Sterling-Winthrop Pharmaceuticals, and control compound Pirodavir, obtained from Janssen Pharmaceuticals.", "values": [{"smiles": "CCOC(=O)C=CC(CCC(N)=O)NC(=O)C(Cc1ccccc1)NC(=O)C(NC(=O)SC1CCCC1)C(C)(C)[S+](C)[O-]", "note": "(mixture of isomers) [Compound 179, Ethyl-3-(Cyclopentylthiocarbonyl-L-[S(O)-Me-Pen]-L-Phe-L-Gln)-E-Propenoate]", "TI": ">56"}, {"smiles": "CC(C)C[C@H](NC(=O)OCc1ccccc1)C(=O)N[C@@H](Cc1ccccc1)C(=O)NC(/C=C/C#N)CCC(N)=O", "note": "(mixture of isomers) [Compound 14, 3-(CBZ-L-Leu-L-Phe-DL-Gln)-E-Propenonitrile]", "TI": 28}, {"smiles": "CCOC(=O)/C=C/[C@H](CCC(=O)NC(c1ccccc1)(c1ccccc1)c1ccccc1)NC(=O)[C@H](Cc1ccccc1)NC(=O)[C@H](CC(C)C)NC(=O)OCc1ccccc1", "note": "[Compound 2, Ethyl-3-[CBZ-L-Leu-L-Phe-L-(Tr-Gln)]-E-Propenoate]", "TI": ">3.2"}, {"smiles": "CCOC(=O)/C=C/[C@H](CNC(C)=O)NC(=O)[C@H](Cc1ccccc1)NC(=O)[C@H](CC(C)C)NC(=O)OCc1ccccc1", "note": "[Compound 4, Ethyl-3-[CBZ-L-Leu-L-Phe-L-(N-Ac-amino)-Ala]-E-Propenoate]", "TI": ">146"}, {"smiles": "COC(=O)/C=C\\[C@H](CCC(N)=O)NC(=O)[C@H](Cc1ccccc1)NC(=O)[C@H](CC(C)C)NC(=O)OCc1ccccc1", "note": "[Compound 7, Methyl-3-(CBZ-L-Leu-L-Phe-L-Gln)-Z-Propenoate]", "TI": ">100"}, {"smiles": "CCOC(=O)/C(F)=C\\[C@H](CCC(N)=O)NC(=O)[C@H](Cc1ccccc1)NC(=O)[C@H](CC(C)C)NC(=O)OCc1ccccc1", "note": "[Compound 8, Ethyl-2-Fluoro-3-(CBZ-L-Leu-L-Phe-L-Gln)-E-Propenoate]", "TI": ">5"}, {"smiles": "CC(C)C[C@H](NC(=O)OCc1ccccc1)C(=O)N[C@@H](Cc1ccccc1)C(=O)N[C@H](/C=C/S(=O)(=O)c1ccccc1)CCC(N)=O", "note": "[Compound 10, Phenyl-[2-(CBZ-L-Leu-L-Phe-L-Gln)-E-Vinyl]Sulfone]", "TI": ">2"}, {"smiles": "CCOC(=O)/C=C/[C@H](CC[S+](C)[O-])NC(=O)[C@H](Cc1ccccc1)NC(=O)[C@H](CC(C)C)NC(=O)OCc1ccccc1", "note": "(stereo partly drawn) [Compound 12, Ethyl-3-[CBZ-L-Leu-L-Phe-L-Met(sulfoxide)]-E-propenoate]", "TI": ">63"}, {"smiles": "CC(=O)/C=C/[C@H](CCC(N)=O)NC(=O)[C@H](Cc1ccccc1)NC(=O)[C@H](CC(C)C)NC(=O)OCc1ccccc1", "note": "[Compound 13, 4-(CBZ-L-Leu-L-Phe-L-Gln)-E-3-Butene-2-one]", "TI": 29}, {"smiles": "CCOC(=O)/C=C/[C@H](CNC(N)=O)NC(=O)[C@H](Cc1ccccc1)NC(=O)[C@H](CC(C)C)NC(=O)OCc1ccccc1", "note": "[Compound 16, Ethyl-3-[CBZ-L-Leu-L-Phe-L-(N-carbamyl-amino)-Ala]-E-Propenoate]", "TI": ">3"}, {"smiles": "CC(C)C[C@H](NC(=O)OCc1ccccc1)C(=O)N[C@@H](Cc1ccccc1)C(=O)N[C@H](/C=C/C(=O)OC(C)C)CCC(N)=O", "note": "[Compound 17, Isopropyl-3-(CBZ-L-Leu-L-Phe-L-Gln)-E-Propenoate]", "TI": ">56"}, {"smiles": "CC(C)C[C@H](NC(=O)OCc1ccccc1)C(=O)N[C@@H](Cc1ccccc1)C(=O)N[C@H](/C=C/C(=O)OC1CCCC1)CCC(N)=O", "note": "[Compound 18, Cyclopentyl-3-(CBZ-L-Leu-L-Phe-L-Gln)-E-Propenoate]", "TI": ">156"}, {"smiles": "CC(C)C[C@H](NC(=O)OCc1ccccc1)C(=O)N[C@@H](Cc1ccccc1)C(=O)N[C@H](/C=C/C(=O)OCC1CCCC1)CCC(N)=O", "note": "[Compound 19, Cyclopentylmethyl-3-(CBZ-L-Leu-L-Phe-L-Gln)-E-Propenoate]", "TI": ">74"}, {"smiles": "CC(C)C[C@H](NC(=O)OCc1ccccc1)C(=O)N[C@@H](Cc1ccccc1)C(=O)N[C@H](/C=C/C(=O)N(C)C)CCC(N)=O", "note": "[Compound 22, N,N-Dimethyl-3-(CBZ-L-Leu-L-Phe-L-Gln)-E-Propenamide]", "TI": ">5"}, {"smiles": "CCOC(=O)/C=C/[C@H](CCC(N)=O)NC(=O)[C@H](Cc1ccc(Cl)cc1)NC(=O)c1cc2c(OC)cccc2[nH]1", "note": "[Compound 26, Ethyl-3-[N-(4-Methoxyindole-2-Carbonyl)-L-(4-Cl-Phe)-L-Gln]-E-Propenoate]", "TI": 22}, {"smiles": "CCOC(=O)/C=C/[C@H](CCC(N)=O)NC(=O)[C@H](Cc1cccc(F)c1)NC(=O)c1cc2c(OC)cccc2[nH]1", "note": "[Compound 28, Ethyl-3-[N-(4-Methoxyindole-2-Carbonyl)-L-(3-F-Phe)-L-Gln]-E-Propenoate]", "TI": 14}, {"smiles": "CCOC(=O)/C=C/C(CCC(N)=O)NC(=O)C(Cc1ccc(Cl)cc1)NC(=O)c1cc2c(OC)cccc2n1C(c1ccccc1)(c1ccccc1)c1ccccc1", "note": "[Compound 29, Ethyl-3-[N-(1-Tr-4-Methoxyindole-2-Carbonyl)-L-(4-Cl-Phe)-L-Gln]-E-Propenoate]", "TI": 19}, {"smiles": "CCOC(=O)/C=C/[C@H](CCC(N)=O)NC(=O)[C@H](Cc1ccccc1)NC(=O)OCc1ccccc1", "note": "[Compound 30, Ethyl-3-(CBZ-L-Phe-L-Gln)-E-Propenoate]", "TI": 18}, {"smiles": "CCCS(=O)(=O)N[C@@H](Cc1ccccc1)C(=O)N[C@H](/C=C/C(=O)OCC)CCC(N)=O", "note": "[Compound 31, Ethyl-3-[N-(Propylsulfonyl)-L-Phe-L-Gln]-E-Propenoate]", "TI": ">2"}, {"smiles": "CCOC(=O)/C=C/[C@H](CCC(N)=O)NC(=O)[C@H](Cc1ccccc1)NS(=O)(=O)Cc1ccccc1", "note": "[Compound 32, Ethyl-3-[N-(Benzylsulfonyl)-L-Phe-L-Gln]-E-Propenoate]", "TI": ">10"}, {"smiles": "CCOC(=O)/C=C/[C@H](CCC(N)=O)NC(=O)[C@H](Cc1ccccc1)NS(=O)(=O)CC", "note": "[Compound 33, Ethyl-3-[N-(Ethylsulfonyl)-L-Phe-L-Gln]-E-Propenoate]", "TI": ">1"}, {"smiles": "CCOC(=O)/C=C/[C@H](CCC(N)=O)NC(=O)[C@H](Cc1ccccc1)NS(=O)(=O)c1ccccc1", "note": "[Compound 34, Ethyl-3-[N-(Phenylsulfonyl)-L-Phe-L-Gln]-E-Propenoate]", "TI": ">1"}, {"smiles": "CCOC(=O)/C=C/[C@H](CCC(N)=O)NC(=O)[C@H](Cc1ccc(F)cc1)NC(=O)[C@H](CC(C)C)NC(=O)OCc1ccccc1", "note": "[Compound 35, Ethyl-3-[CBZ-L-Leu-L-(4-F-Phe)-L-Gln]-E-Propenoate]", "TI": ">178"}, {"smiles": "CCOC(=O)/C=C/[C@H](CCC(N)=O)NC(=O)[C@H](Cc1ccccc1)NC(=O)[C@H](CC(C)C)NC(=O)OCc1ccncc1", "note": "[Compound 36]", "TI": ">57"}, {"smiles": "CC(C)C[C@H](NC(=O)OCc1ccccc1)C(=O)N[C@@H](Cc1ccccc1)C(=O)N[C@H](/C=C/C(=O)N1CC=CC1)CCC(N)=O", "note": "[Compound 41]", "TI": 1}, {"smiles": "COc1ccc(C(=O)/C=C/[C@H](CCC(N)=O)NC(=O)[C@H](Cc2ccccc2)NC(=O)[C@H](CC(C)C)NC(=O)OCc2ccccc2)cc1", "note": "[Compound 42]", "TI": ">4"}, {"smiles": "CCOC(=O)/C=C/C(CCC(N)=O)NC(=O)C(Cc1ccccc1)NC(=O)C(CC(C)C)NC(=O)c1ccc2ccccc2c1", "note": "(centres unmarked) [Compound 44]", "TI": ">320"}, {"smiles": "CC(C)C[C@H](NC(=O)OCc1ccccc1)C(=O)N[C@@H](Cc1ccccc1)C(=O)N[C@H](/C=C/C(=O)c1ccc2c(c1)OCO2)CCC(N)=O", "note": "[Compound 46]", "TI": 14}, {"smiles": "CC(C)C[C@H](NC(=O)OCc1ccccc1)C(=O)N[C@@H](Cc1ccccc1)C(=O)N[C@H](/C=C/C(=O)c1ccco1)CCC(N)=O", "note": "[Compound 49]", "TI": 8}, {"smiles": "CC(C)C[C@H](NC(=O)OCc1ccccc1)C(=O)N[C@@H](Cc1ccccc1)C(=O)N[C@H](/C=C/C(=O)C(C)(C)C)CCC(N)=O", "note": "[Compound 52]", "TI": 3}, {"smiles": "CCOC(=O)/C=C/[C@H](CCC(N)=O)NC(=O)[C@H](Cc1ccc(O)cc1)NC(=O)[C@H](CC(C)C)NC(=O)OCc1ccccc1", "note": "[Compound 53]", "TI": ">60"}, {"smiles": "CCOC(=O)/C=C/[C@H](COC(N)=O)NC(=O)[C@H](Cc1ccccc1)NC(=O)[C@H](CC(C)C)NC(=O)OCc1ccccc1", "note": "[Compound 56]", "TI": ">203"}, {"smiles": "CC(C)C[C@H](NC(=O)OCc1ccccc1)C(=O)N[C@@H](Cc1ccccc1)C(=O)N[C@H](/C=C/C(=O)N(C)c1ccccc1)CCC(N)=O", "note": "[Compound 60]", "TI": ">2"}, {"smiles": "CC(C)C[C@H](NC(=O)OCc1ccccc1)C(=O)N[C@@H](Cc1ccccc1)C(=O)N[C@H](/C=C/C(=O)N1CCCC1=O)CCC(N)=O", "note": "[Compound 61]", "TI": 63}, {"smiles": "CC(C)C[C@H](NC(=O)OCc1ccccc1)C(=O)N[C@@H](Cc1ccccc1)C(=O)N[C@H](/C=C/C(=O)N1CCOC1=O)CCC(N)=O", "note": "[Compound 62]", "TI": ">63"}, {"smiles": "CC(C)C[C@H](NC(=O)OCc1ccccc1)C(=O)N[C@@H](Cc1ccccc1)C(=O)N[C@H](/C=C/C(=O)n1cccc1)CCC(N)=O", "note": "[Compound 66]", "TI": 5}, {"smiles": "CCOC(=O)/C=C/[C@H](CCC(N)=O)NC(=O)[C@H](Cc1ccccc1)NC(=O)[C@H](CC(C)C)NC(=O)c1ccccc1", "note": "[Compound 67]", "TI": ">62"}, {"smiles": "CCOC(=O)C=CC(CCC(N)=O)NC(=O)C(Cc1ccccc1)NC(=O)C(NC(=O)OCc1ccccc1)c1ccccc1", "note": "(centres unmarked) [Compound 71]", "TI": 23}, {"smiles": "CC(C)C[C@H](NC(=O)OCc1ccccc1)C(=O)N[C@@H](Cc1ccccc1)C(=O)N[C@H](/C=C/CCl)CCC(N)=O", "note": "[Compound 74]", "TI": 25}, {"smiles": "CC(C)C[C@H](NC(=O)OCc1ccccc1)C(=O)N[C@@H](Cc1ccccc1)C(=O)N[C@H](/C=C/CSc1ccccn1)CCC(N)=O", "note": "[Compound 75]", "TI": ">20"}, {"smiles": "CC(C)C[C@H](NC(=O)OCc1ccccc1)C(=O)N[C@@H](Cc1ccccc1)C(=O)N[C@H](/C=C\\CCl)CCC(N)=O", "note": "[Compound 78]", "TI": 8}]}]}
